Source: PMC4369318, “High-sensitivity MALDI-TOF MS quantification of anthrax lethal toxin for diagnostics and evaluation of medical countermeasures” (2015)

What was measured:
[1] = target: protective antigen, 63 kDa activated form (PA63) (Bacillus anthracis) (UniProt P13423)
[2] = target: protective antigen, 63 kDa activated form (PA63) (Bacillus anthracis) (UniProt P13423); assay: native gel or EMSA

**Q.** Which results are given for “lethal factor (LF) (from UniProt P15917 34-809)”?
**A.** LTx complex formed, in plasma [1]: 2 ng/mL; LTx complex formed, in serum [1]: 1.8 ng/mL

**Q.** Which free (unbound) LF, percent of total LF loaded [2] does the source give for “lethal factor (LF) (from UniProt P15917 34-809) (enzyme)” here?
**A.** 3%
